Measurements: US20050186197A1, “Peptide inhibitors of beta lactamases” (published 2005)

T1: Bla1 class A β-lactamase from Bacillus anthracis (Bacillus anthracis)
T1 chain: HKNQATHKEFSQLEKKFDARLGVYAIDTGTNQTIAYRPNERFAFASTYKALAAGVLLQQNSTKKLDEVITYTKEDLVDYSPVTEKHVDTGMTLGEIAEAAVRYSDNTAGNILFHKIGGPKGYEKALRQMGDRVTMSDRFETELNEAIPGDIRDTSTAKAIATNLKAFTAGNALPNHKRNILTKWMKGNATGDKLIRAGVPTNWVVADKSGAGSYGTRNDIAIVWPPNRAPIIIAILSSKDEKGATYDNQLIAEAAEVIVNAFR


Tests used:
[1] = biological target: Bla1 class A β-lactamase from Bacillus anthracis (Bacillus anthracis); experiment: β-lactamase inhibition assay (Pen V)
[2] = biological target: T1, Bla1 class A β-lactamase from Bacillus …; experiment: β-lactamase inhibition assay (Pen V), Ki from IC50 by Cheng-Prusoff
[3] = biological target: T1, Bla1 class A β-lactamase from Bacillus …; experiment: ratio of Ki values, β-lactamase inhibition assay

Molecule | Ki [1] [µM] | Ki [2] [µM] | fold lower Ki than the Ki for inhibition of TEM-1 β-lactamase [3] [fold] | fold increase in Ki relative to RRGHYY-NH2 [3] [fold]
RR-NH2 (peptide) | > 2000 |  |  | 
RRGHYY (modifications not checked) [RRGHYY-NH2] |  | 42 | 3 | 
HSAYSDTRRGDYG (modifications not checked) […-NH2] |  | 70 | 4 | 
AAGHYY (modifications not checked) [AAGHYY-NH2] |  | 72 |  | 2
